Reference: US8173673B2, “Biofilm-inhibiting effect and anti-infective activity of N,C-linked aryl isoquinolines and the use thereof” (Julius-Maximilians-Universitaet Wuerzburg, priority 2006, dated 2012)

Legend:
Format in all cases: cell-based
[1] = tested on: Plasmodium falciparum strain K1; experiment: [3H]-hypoxanthine-inclusion-test, anti-plasmodium activity; conditions: ratio of IC50 for rat myoblasts (L-6-cells) to IC50 for Plasmodium falciparum
From the text: For the determination of the anti-plasmodium activities, cultures of Plasmodium falciparum strain K1 (resistant against chloroquine and pyrimethamine) were used. A modification (R. G. Ridley, W. Hofheinz, if Matile, C. Jacquet, A. Dorn, R. Masciadri, S. Jolidon, W. F. Richter, A. Guenzi, M. A. Girometta, H. Urwyler, W. Huber, S. Thaitong, W. Peters, Antimicrob. Agents Chemother. 1996, 40, 1846-1854) of the [^3H]-hypoxanthine-inclusion-test (R. E. Desjardins, C. J. Canfield, D. Haynes, J. Chulay, Antimicrob. Agents Chemother. 1979, 16, 710-718) was used. Human red blood cells infected with P. falciparum (0.3% infection) at a hematocrit of 2.5% (volume fraction of the red blood cells) in RPMI 1640 medium with the serum replacement Albumax II (5 g/L) were incubated with serial dilutions of the drugs in microtiter plates for 48 hours at 37° C. under a CO2-enriched and O2-reduced atmosphere. Then, 0.5 μCi [^3H]-hypoxanthine were added to each well of the microtiter plate, and after a further 24 hours of incubation time the wells were harvested with a Betaplate Cell Harvester onto glass fiber filters, and lysed with distilled water. The incorporation of radio-labeled hypoxanthine (which correlates with the quantity of living parasites) was determined using a scintillation counter. The IC50 value was determined from sigmoidal inhibition curves. The tests were performed in duplicate, and repeated at least once. Parasite cultures without additive served as control (100% incorporation), cultures with a dilution series of chloroquine served as positive control.
The anti-plasmodia activities of the compounds of the general structures 1-3 were studied based on a series of examples according to the above-described methods. The therapeutic index is the ratio of the IC50 values for rat myoblasts (L-6-cells=cytotoxicity) to the IC50 values for Plasmodium falciparum.

[2] = tested on: Trypanosoma brucei brucei strain TC-221; experiment: Alamar Blue anti-trypanosome test, bloodstream forms; conditions: ratio of cytotoxicity (J774.1 macrophages) to activity against Trypanosoma brucei brucei
Experimental: Bloodstream-forms of the strain TC-221 of Trypanosoma brucei brucei were cultivated in enriched Baltz-culture medium in an atmosphere von 5% CO2 at 37° C. For activity determinations, a defined number of pathogens (10^4 trypanosomes per ml) were incubated in 96-well-plates with the compounds in different concentrations for 48 to 72 hours. The effect of the drugs was quantifiable using the ED50-values with linear interpolation. The trypanocidal activity of the test compounds was determined through measuring absorption on an MR 700 microplate reader (test wavelength 550 nm, reference wavelength 630 nm) by means of Alamar Blue®, an indicator of metabolic cellular functions. The addition of the dye took place 24 hours after starting the incubation. The color change of Alamar Blue® as used in this absorption measurements is based on reduction processes involving NADH or NADH-dependent enzymes. Incubation times and the concentrations of dye as required correlate with the metabolic activities of the trypanosomes. The MIC-value (minimum inhibitory concentration) was determined microscopically through counting of living cells in Neubauer-counting chambers. Suramine Na served both as positive control and reference.
The anti-trypanosomal activities of the compounds of the general structures 1-3 were studied based on a series of examples according to the above-described methods. The therapeutic index is the ratio of the cytoxicity (J774.1 macrophages) to the activities against Trypanosoma brucei brucei.

[3] = tested on: Leishmania major-promastigotes (MHOM/IL81/FE/BNI); experiment: Alamar Blue activity test against Leishmania major promastigotes; conditions: ratio of cytotoxicity against J774.1 macrophages to activity against Leishmania major
Experimental: Leishmania major-promastigotes (MHOM/IL81/FE/BNI) were cultivated in blood agar-cultures at 26° C., 5% CO2, and 95% humidity. For the experiment, the promastigotes were washed twice with saline phosphate buffer (PBS) and subsequently suspended (10^8 cells/ml) in Click-RPMI-1640-medium without phenol red, spiked with 10% FCS, 2 mM L-glutamine, 1.0 mM HEPES-buffer, pH 7.2, 100 μg/ml penicillin, […] gentamycin, 7.5% NaHCO3 and 50 μM 2-mercaptoethanol (culture medium). For the determination of activity, 200 μl of the promastigote-suspension in microtiter plates were each incubated with the compounds in a geometric series of dilutions for 24 hours at 26° C., 5% CO2, and 95% humidity. Subsequently, 20 μl Alamar Blue (Trinova Biochem, Gieβen, Germany) were added to each of the microcultures, and the cultures were incubated further. Cultures that only contained medium and the compound, or only cellular suspension (without compound), served as controls. The optical density was measured after another 24 hours with an ELISA-reader at the wave lengths 550 nm and 630 nm. The IC50-values of the compounds were calculated through linear interpolation (J. Mikes, D. Steverding. Parasitol. Int. 2000, 48, 265-269). […]

| Structure (SMILES) | Therapeutic index [1] | Therapeutic index [2] | also measured |
| --- | --- | --- | --- |
| COc1cc(OC)c2c(C)[n+](-c3ccc(Cl)cc3)c(C)cc2c1 [G] | 671 | – | – |
| COc1cc2c(c(OC)c1)C(C)=[N+](c1cccc3ccccc13)[C@@H](C)C2 [Compound 2a, (3S)—N,1′-naphthyl-6,8-dimethoxy-1,3-dimethyl-3,4-dihydroisoquinolinium-trifluoro-acetate] | – | >180 | – |
| COc1cc(OC)c2c(C)[n+](-c3ccc(C)cc3)c(C)cc2c1 [B] | – | – | Therapeutic index [3]: 13 |
| COc1cc(OC)c2c(C)[n+](-c3ccc(C(F)(F)F)cc3)c(C)cc2c1 [H] | 324 | – | – |
| COc1cc(OC)c2c(C)[n+](-c3ccc(C(C)C)cc3)c(C)cc2c1 [D] | – | – | Therapeutic index [3]: 18 |
| COc1cc(OC)c2c(C)[n+](-c3ccccc3OC)c(C)cc2c1 [E] | – | 86 | – |
| COc1cc(OC)c2c(C)[n+](-c3ccc(NC(C)=O)cc3)c(C)cc2c1 [I] | >841 | – | – |
| COc1ccc(-[n+]2c(C)cc3cc(OC)cc(OC)c3c2C)c(OC)c1 [F] | – | 72 | – |
